Test results: patent publication US20250320480A1, “Immunoglobulin Cleaving Enzyme” (priority 2021, published 2025)

Tested on: IVIG
Test: Prevalence of anti-IgG hydrolase antibodies in IVIG (ELISA and Western blot)
Type: binding, human
Conditions: IVIG 5 μg/mL

B1: IdeS: Immunoglobulin G-degrading enzyme of S. pyogenes, IgG-specific cysteine protease (protein)
chain: DSFSANQEIRYSEVTPYHVTSVWTKGVTPPANFTQGEDVFHAPYVANQGWYDITKTFNGKDDLLCGAATAGNMLHWWFDQNKDQIKRYLEEHPEKQKINFNGEQMFDVKEAIDTKNHQLDSKLFEYFKEKAFPYLSTKHLGVFPDHVIDMFINGYRLSLTNHGPTPVKEGSKDPRGGIFDAVFTRGDQSKLLTSRHDFKEKNLKEISDLIKKELTEGKALGLSHTYANVRINHVINLWGADFDSNGNLKAIYVTDSDSNASIGMKKYFVGVNSAGKVAISAKEIKEDNIGAQVLGLFTLSTGQDSWNQTN
  Binding of IVIG antibodies to the enzyme (pre-existing anti-enzyme antibodies): prevalent

B2: IdeZ: IgG cysteine protease produced by Streptococcus equi ssp. zooepidemicus (protein)
chain: DDYQRNATEAYAKEVPHQITSVWTKGVTPLTPEQFRYNNEDVIHAPYLAHQGWYDITKAFDGKDNLLCGAATAGNMLHWWFDQNKTEIEAYLSKHPEKQKIIFNNQELFDLKAAIDTKDSQTNSQLFNYFRDKAFPNLSARQLGVMPDLVLDMFINGYYLNVFKTQSTDVNRPYQDKDKRGGIFDAVFTRGDQTTLLTARHDLKNKGLNDISTIIKQELTEGRALALSHTYANVSISHVINLWGADFNAEGNLEAIYVTDSDANASIGMKKYFVGINAHGHVAISAKKIEGENIGAQVLGLFTLSSGKDIWQKLS
  Binding of IVIG antibodies to the enzyme (pre-existing anti-enzyme antibodies): significantly less antibody binding

B3: IdeSORK2.0: SEQ ID NO: 2 (N terminal 312 amino acids of IdeSORK) with added N terminal methionine and C-terminal His6; 319 amino acids (protein)
chain: MSKRKLLKKIEKKDTSSVLTQKKQTKTLWADGVQVDDKDFKPSTENFGTNYLAAEYGIGKGYYDINKKFDGTDDDLCSGVVAANQLHWWLDRNKDYIEKYRQQSKDNGVTIGNTDIFELNKLHDEDQSNFFDFIKKSFGNKFLQPERLLNMYINGYGYLTSQDKAKTSQPSPSKLNFFQKVFKNNLLTDKTPINDIDEFSSQTKNALQNHKVLAVSFASIKNRGLGHVVTVWGADFDENGKVVALYVTDSDDRSKNIGNAKLGMKKLRIEVSAQDSSTIKLTGFEDKNSGGSLRHLYSLSTGEQIWKKYFEETHHHHHH
modifications: (IdeSORK2.0) Protein of SEQ ID NO 2 engineered to include an additional N terminal methionine and a C-terminal protein purification tag - His6
  Binding of IVIG antibodies to the enzyme (pre-existing anti-enzyme antibodies): even less
Listed as IdesSORK2.0
  Binding of IVIG antibodies to the enzyme (pre-existing anti-enzyme antibodies): very little reactivity with IVIG
